For three compounds, IC50 results are on record in PMC3445454, “Broad and Cross-Clade CD4^+ T-Cell Responses Elicited by a DNA Vaccine Encoding Highly Conserved and Promiscuous HIV-1 M-Group Consensus Peptides” (PLoS ONE, 2012).

Sequences of proteins named here, by UniProt entry; tags and fusion partners are left off. Residues count along the entry.
UniProt P01911, 30-266 with the stated changes limits assumed: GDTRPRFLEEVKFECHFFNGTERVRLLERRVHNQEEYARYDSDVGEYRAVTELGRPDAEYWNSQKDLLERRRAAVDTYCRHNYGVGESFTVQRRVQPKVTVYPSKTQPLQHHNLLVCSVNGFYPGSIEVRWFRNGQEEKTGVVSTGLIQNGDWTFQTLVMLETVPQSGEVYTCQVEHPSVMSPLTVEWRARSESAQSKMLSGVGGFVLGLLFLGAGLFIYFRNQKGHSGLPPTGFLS

Test in all cases: biochemical
In test [1] the target is T1, HLA-DP DPA1*02:01/DPB1*05:01 (Homo sapiens, UniProt P04440+P20036, A65V/A84E/F191V/F64L/G113D/G114E/K142R/L158P/M116V/M62Q/P115A/Q81R/R125K/T114A/T199I/T259P/V234M).
T1 sequence (P20036 29-260 A42M/M62Q/Q81R/T114A/K142R/L158P/F191V/T259P): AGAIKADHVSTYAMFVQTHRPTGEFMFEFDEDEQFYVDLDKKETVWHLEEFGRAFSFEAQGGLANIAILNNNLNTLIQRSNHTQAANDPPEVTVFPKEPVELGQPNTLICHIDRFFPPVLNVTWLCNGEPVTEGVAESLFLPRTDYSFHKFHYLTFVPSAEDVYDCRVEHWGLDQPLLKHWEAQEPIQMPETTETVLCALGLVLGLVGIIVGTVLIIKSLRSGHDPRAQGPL
T1 sequence (P04440 30-258 F64L/A65V/A84E/G113D/G114E/P115A/M116V/R125K/T199I/V234M): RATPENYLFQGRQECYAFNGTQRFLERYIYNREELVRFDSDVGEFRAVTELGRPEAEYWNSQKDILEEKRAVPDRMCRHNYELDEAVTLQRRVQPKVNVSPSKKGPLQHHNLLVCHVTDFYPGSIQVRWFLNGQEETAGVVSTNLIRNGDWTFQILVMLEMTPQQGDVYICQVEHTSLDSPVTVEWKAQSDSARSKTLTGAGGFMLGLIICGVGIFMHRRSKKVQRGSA
It is filed as binding.

In test [2] the target is HLA-DQ DQA1*04:01/DQB1*04:02 (Homo sapiens, UniProt P01909+P01920, A45G/E106S/E183D/E77G/E98D/H199R/I129T/K197E/L107V/L178F/L91T/P87R/P88L/R102E/S185I/S97I/T103D/T217I/V99I/Y41F/Y58G).
The target in test [3] is HLA-DR DRB1*10:01 (Homo sapiens, UniProt P01903+P01911, A100R/A169T/D57E/F55L/F60V/F69Y/F76Y/I96L/L162R/M171V/P40V/Q260P/Q39E/Q99R/R195Q/R42F/S149N/S66Y/T210M/V115G/V67A/W38E/Y59R/Y61H). Format: binding.
Test [4] has as its target HLA-DP DPA1*02:01/DPB1*01:01 (Homo sapiens, UniProt P04440+P20036, F191V/F38Y/F64Y/G113D/G114E/K142R/L158P/L37V/M105V/M116V/M62Q/P115A/Q81R/R125K/R223Q/T114A/T199I/T259P).
Test [5] addresses HLA-DR DRB4*01:01 (Homo sapiens, UniProt P01903+P13762, G164S). Format: binding.
Test [6] concerns the target T2, HLA-DP DPA1*01:03/DPB1*20:01 (Homo sapiens, UniProt P04440+P20036, A65V/A84D/A85E/E86D/F38Y/G113D/G114E/G40L/I94L/L37V/M116V/P115A/R125K/T199I).
T2 sequence (P20036 29-260): T1 sequence (P20036 29-260 A42M/M62Q/Q81R/T114A/K142R/L158P/F191V/T259P) with M14A, Q34M, R53Q, A86T, R114K, P130L, V163F, P231T
T2 sequence (P04440 30-258 L37V/F38Y/G40L/A65V/A84D/A85E/E86D/I94L/G113D/G114E/P115A/M116V/R125K/T199I/V234M): T1 sequence (P04440 30-258 F64L/A65V/A84E/G113D/G114E/P115A/M116V/R125K/T199I/V234M) with L8V, F9Y, G11L, L35F, E55D, A56E, E57D, I65L
Format: binding.

Test [7] deals with HLA-DQ DQA1*03:01/DQB1*03:01 (Homo sapiens, UniProt P01909+P01920, A209T/C70Q/DUP78-78/E183D/F237L/G63E/I129T/K197E/L178F/L74F/L98V/Q57E/Q76R/S185I/S97I/T49S/V73L). It is filed as binding.
Test [8] has as its target HLA-DQ DQA1*01:02/DQB1*05:02 (Homo sapiens, UniProt P01909+P01920, A157S/A45G/A70V/C70R/D89S/E106S/E118A/E183D/E77G/F83G/G63E/H151Q/H199R/H252R/H253Q/I129T/I235V/I88M/INS77G/K197Q/L107V/L117V/L119Y/L178F/L71W/L74F/L85Q/L91A/L98M/M46L/N214S/P87R/Q116E/Q158H/Q256R/Q76K/R102G/R240Q/R75S/R78G/S102Y/S185I/S41F/S97I/T103A/T109R/T121G/T122I/T172A/T86R/V148I/V229M/V68A/V73E/Y34C/Y58G/Y62H).

The target in test [9] is T3, HLA-DP DPA1*01:03/DPB1*03:01 (Homo sapiens, UniProt P04440+P20036, A65V/A84D/A85E/E86D/F38Y/G113D/G114E/G40L/I94L/L37V/M105V/M116V/P115A/R125K/T199I).
T3 sequence (P20036 29-260): T1 sequence (P20036 29-260 A42M/M62Q/Q81R/T114A/K142R/L158P/F191V/T259P) with M14A, Q34M, R53Q, A86T, R114K, P130L, V163F, P231T
T3 sequence (P04440 30-258 L37V/F38Y/G40L/A65V/A84D/A85E/E86D/I94L/M105V/G113D/G114E/P115A/M116V/R125K/T199I): T1 sequence (P04440 30-258 F64L/A65V/A84E/G113D/G114E/P115A/M116V/R125K/T199I/V234M) with L8V, F9Y, G11L, L35F, E55D, A56E, E57D, I65L, M76V, M205V
It is filed as binding.

Where a chain is given by its changes, count along the chain named.

As to `CSCC[C@H](NC(=O)[C@@H]1CCCN1C(=O)[C@H](CCCNC(=N)N)NC(=O)[C@H](CC(C)C)NC(=O)[C@@H]1CCCN1C(=O)[C@@H](NC(=O)[C@H](CCC(N)=O)NC(=O)[C@@H]1CCCN1C(=O)[C@H](CCCNC(=N)N)NC(=O)[C@@H](NC(=O)[C@@H]1CCCN1C(=O)[C@H](Cc1ccccc1)NC(=O)CN)C(C)C)C(C)C)C(=O)N[C@H](C(=O)N[C@@H](Cc1ccc(O)cc1)C(=O)N[C@@H](CCCCN)C(=O)NCC(=O)N[C@@H](C)C(=O)N[C@@H](Cc1ccccc1)C(=O)N[C@@H](CC(=O)O)C(=O)N[C@@H](CC(C)C)C(N)=O)[C@@H](C)O` [nef(67-87)], the IC50 in test [1] was determined as 1870 nM; in test [2] it was 18.7 µM; in [3], 105 nM; in test [4], 2010 nM; in [5] it was 22 nM; in test [6], 3990 nM. For the same compound, the IC50 in test [7] was determined as 309 nM; in test [8], 27 µM; in [9], 953 nM.

For the compound `CC[C@H](C)[C@H](NC(=O)[C@@H](NC(=O)[C@H](CCC(=O)O)NC(=O)[C@@H]1CCCN1C(=O)[C@@H](N)CO)C(C)C)C(=O)N1CCC[C@H]1C(=O)N[C@@H](CCSC)C(=O)N[C@@H](Cc1ccccc1)C(=O)N[C@@H](CO)C(=O)N[C@@H](C)C(=O)N[C@@H](CC(C)C)C(=O)N[C@@H](CO)C(=O)N[C@@H](CCC(=O)O)C(=O)NCC(=O)N[C@@H](C)C(=O)N[C@H](C(N)=O)[C@@H](C)O` [p24(33-48)], the IC50 is 4370 nM in [1]; 0.473 µM in [2]; 3.6 nM in [3]; 1920 nM in test [4]; 58 nM in test [5]; 479 nM in [6]. Moreover, the IC50 in [7] is 79 nM; in test [8], 2.89 µM; in [9], 541 nM.

With `CC[C@H](C)[C@H](NC(=O)[C@H](CCC(=O)O)NC(=O)CN)C(=O)N[C@@H](Cc1ccc(O)cc1)C(=O)N[C@@H](CCCCN)C(=O)N[C@@H](CCCNC(=N)N)C(=O)N[C@@H](Cc1c[nH]c2ccccc12)C(=O)N[C@H](C(=O)N[C@H](C(=O)N[C@@H](CC(C)C)C(=O)NCC(=O)N[C@@H](CC(C)C)C(=O)N[C@@H](CC(N)=O)C(=O)N[C@@H](CCCCN)C(=O)N[C@H](C(=O)N[C@H](C(=O)N[C@@H](CCCNC(=N)N)C(=O)N[C@@H](CCSC)C(=O)N[C@@H](Cc1ccc(O)cc1)C(N)=O)C(C)C)[C@@H](C)CC)[C@@H](C)CC)[C@@H](C)CC` [p24(127-145)], the IC50 in test [1] stood at 32 nM; in test [2] it was 11.9 µM; in test [3], 88 nM; in [4] it was 496 nM; in test [5], 172 nM; in test [6], 181 nM. Further, the IC50 in test [7] turned out to be 866 nM; in [8], 4.99 µM; in [9], 1650 nM.

One may read the IC50 as the concentration that inhibits the measured activity by half. A low value points to higher potency.
